Results of unrelated studies side by side (data: NIAID ChemDB).

All rows: growth or infection tests; species: Mycobacterium smegmatis

Lines come from different laboratories, so protocols vary.

smiles	method	measure	strain or isolate	changes	value
CCCCCCCCC(O)[C@@H]1O[C@H](C(C)O)C(O)C1O	absorbance	MIC	mc2155		2 µM
Cc1cn(C/C=C\Cn2c(=O)n3c4c(cccc42)CCC3)c(=O)[nH]c1=O	resazurin / absorbance	EC50	mc2155		>160 µg/mL
COc1ccc2cc(C(=O)CN3CCN(c4c(F)cc5c(=O)c(C(=O)O)cn(C6CC6)c5c4OC)CC3C)c(=O)oc2c1		MIC	CMCC 93202		>12.5 µg/mL
CC(C)(C)NC(=O)C1c2ccccc2CCN1c1cc2c(cc1[N+](=O)[O-])c(=O)c(C(=O)O)c1n2CS1	agar	MIC	ATCC 14468 MC2		98.32 µM
O=C1CC(c2cccc(F)c2)Nc2ccccc21		MIC	ATCC 607		62.5 µg/mL
CCO/N=C(/CN1CCN(c2c(F)cc3c(=O)c(C(=O)O)cn(C4CC4)c3c2OC)CC1C)c1cc2ccc(OC)cc2oc1=O		MIC	CMCC 93202		6.25 µg/mL
O=C(N[C@H](C(=O)Oc1ccc(Cl)cc1C(=O)Nc1ccc(Br)cc1)C1CCCCC1)OCc1ccccc1	broth dilution	MIC100	ATCC 700084		26.06 µM
O=C(Nc1ccc(Cn2ccnc2)cc1)c1ccc(-c2ccccc2)cc1		MIC	103599		>16 µg/mL
O=C/C=C/c1ccc(O)cc1		EC50	KCTC 2002		200 µM
CSCC[C@H](NS(=O)(=O)c1ccc(C)cc1)C(=O)N/N=C/c1ccc(Br)o1	broth dilution / visual reading	MIC	ATCC 607		>250 µg/mL
Cc1onc(-c2c(F)cccc2F)c1C(=O)N1CCN(c2cc3c(cc2F)c(=O)c(C(=O)O)c2n3CS2)CC1	agar	MIC	ATCC 14468 MC2		89.85 µM
Cc1cn(C/C=C\Cn2c(=O)n3c4c(cc(N)cc42)CCC3)c(=O)[nH]c1=O	resazurin / absorbance	EC50	mc2155		>160 µg/mL
O=C(O)c1c2n(c3cc(N4CCC5(CC4)OCCO5)c(F)cc3c1=O)CS2	agar	MIC	ATCC 14468 MC2		63.71 µM
CCCCCCCCCCCCOc1cc(-c2ccc(F)cc2)nc2ccccc12		MIC	ATCC 607		500 µg/mL
O=C(/C=C/c1ccccc1)Nc1cccc(CN2CCOCC2)c1		MIC	103599		>16 µg/mL
Cc1ccc(NC(=O)c2cc(Cl)ccc2OC(=O)[C@@H](Cc2cc3ccccc3[nH]2)NC(=O)OCc2ccccc2)cc1	broth dilution	MIC100	ATCC 700084		110 µM
CCCCCCCCCOc1cc(-c2cccc(F)c2)nc2ccccc12		MIC	ATCC 607		62.5 µg/mL
C1CCC(NCCNC2CCCC2)C1		EC50	ATCC 607		<250 µg/mL
C=C1C2CCC(CO)[C@@]23CC[C@H](C3)C1(C)C	agar diffusion	MIC	ATC 700084		25 µg/mL
C[C@H]1COc2c(N3CCC(O)(c4ccc(Cl)cc4)CC3)c(F)cc3c(=O)c(C(=O)O)cn1c23	agar	MIC99			26.43 µM
CCCCCCCCC/C=C/c1cc(=O)c2ccccc2n1C	MTT	MIC	ATCC 19420		3.2 µM
O=C(O)c1c2n(c3cc(N4CCN(C(c5ccccc5)c5ccc(Cl)cc5)CC4)c(F)cc3c1=O)CS2	agar	MIC	ATCC 14468 MC2		46.64 µM
CSCC[C@H](NS(=O)(=O)c1ccc(C)cc1)C(=O)N/N=C/c1ccc(-c2ccc(Cl)cc2Cl)o1	broth dilution / visual reading	MIC	ATCC 607		>250 µg/mL
CC(C)(C)OC(=O)NC1C2CN(c3cc4c(cc3[N+](=O)[O-])c(=O)c(C(=O)O)c3n4CS3)CC21	agar	MIC	ATCC 14468 MC2		13.17 µM
CC1COc2c(N3CCN(C)C(c4ccccc4)C3)c(F)c([N+](=O)[O-])c3c(=O)c(C(=O)O)cn1c23	agar	MIC99			6.49 µM
O=C(Nc1ccccc1Cn1ccnc1)c1ccc(-c2ccccc2)cc1		MIC	103599		>16 µg/mL
CSCC[C@H](NS(=O)(=O)c1ccc(C)cc1)C(=O)N/N=C(\C)c1ccc(Cl)s1	broth dilution / visual reading	MIC	ATCC 607		>250 µg/mL
CCCCCCCCCCCCCOc1cc(-c2ccccc2F)nc2ccccc12		MIC	ATCC 607		250 µg/mL
CN[C@H]1[C@@H](O)[C@@H](O)[C@@H](O[C@H]2CC[C@@H](n3cc(NC(=O)c4ccc(NC(=O)[C@@](C)(N)CO)cc4)cnc3=O)O[C@H]2C)O[C@H]1C	broth dilution / agar diffusion	MIC			16 µg/mL
CN[C@@H]1[C@H](O[C@H]2[C@H](O[C@H]3[C@H](O)[C@@H](O)[C@H](N=C(N)N)[C@@H](O)[C@@H]3N=C(N)N)O[C@@H](C)[C@]2(O)C=O)O[C@@H](CO)[C@H](O)[C@H]1O	broth dilution / visual reading	MIC	ATCC 607		4 µg/mL
O=C(CN1CCN(c2cc3c(cc2F)c(=O)c(C(=O)O)cn3C2CC2)CC1)c1cc2ccc(O)cc2oc1=O		MIC	CMCC 93202		3.12 µg/mL
O=C(Nc1cccc(Cn2ccnc2)c1)c1ccc(-c2ccccc2)cc1		MIC	103599		16 µg/mL
COc1cc2c(cc1OC)CN(c1c(F)c([N+](=O)[O-])c3c(=O)c(C(=O)O)cn4c3c1OCC4C)CC2	agar	MIC99			12.51 µM
CCCCCCCCCCC#CCCCC(=O)O		MIC	mc2155		80 µg/mL
COc1cc(-c2ccccn2)nc(CO)c1SC	broth dilution / agar diffusion	MIC			64 µg/mL
CCCCNC(=O)c1cc([N+](=O)[O-])cc([N+](=O)[O-])c1	visual reading	MBC	mc2155		4 µg/mL
CCCCCCCCCCCC#CCCC(=O)O		MIC	mc2155		30 µg/mL
CCCCCOc1cc(-c2ccc(F)cc2)nc2ccccc12		MIC	ATCC 607		125 µg/mL
CSCC[C@H](NS(=O)(=O)c1ccc(C)cc1)C(=O)N/N=C/c1ccc(Cl)s1	broth dilution / visual reading	MIC	ATCC 607		>250 µg/mL
CCO/N=C(/CN1CCN(c2c(F)cc3c(=O)c(C(=O)O)cn(C4CC4)c3c2OC)CC1)c1cc2ccccc2oc1=O		MIC	CMCC 93202		6.25 µg/mL
O=C(O)CC1Sc2nnc(Cc3ccc(Br)cc3)n2N=C1c1ccc(Cl)cc1	resazurin	EC50	mc2155		20 µM
CCCCO[C@@H]1O[C@H]([C@H](O)CO)C(O)C1O	absorbance	MIC	mc2155		>2.1 µM
NNC(=O)c1ccncc1		MIC	MC^2 802		15 µg/mL
CN1CCN(Cc2cccc(NC(=O)c3ccc(Cl)cc3)c2)CC1		MIC	103599		>16 µg/mL
CCO/N=C(/CN1CCN(c2cc3c(cc2F)c(=O)c(C(=O)O)cn3C2CC2)CC1)c1cc2ccc(OC)cc2oc1=O		MIC	CMCC 93202		12.5 µg/mL
CC1COc2c(N3CCC4(CC3)OCCO4)c(F)c([N+](=O)[O-])c3c(=O)c(C(=O)O)cn1c23	agar	MIC99			3.47 µM
CC(C)NC(C)C(C)NC(C)C		EC50	ATCC 607		>1000 µg/mL
C=CCOc1ccc(/C=N/NC(=O)[C@H](CCSC)NS(=O)(=O)c2ccc(C)cc2)cc1	broth dilution / visual reading	MIC	ATCC 607		>250 µg/mL
CCCCCCCCCCCCCCCCCCCC#CC(=O)O		MIC	mc2155		>300 µg/mL
CN1CCN(Cc2ccccc2NC(=O)/C=C/c2ccccc2)CC1		MIC	103599		>16 µg/mL
C[C@H]1COc2c(N3CCC(n4c(=O)[nH]c5cc(Cl)ccc54)CC3)c(F)c([N+](=O)[O-])c3c(=O)c(C(=O)O)cn1c23	agar	MIC99			1.39 µM
CCCCCCCCOc1cc(-c2cccc(F)c2)nc2ccccc12		MIC	ATCC 607		62.5 µg/mL
CC(C)NC/C=C/CNC(C)C		EC50	ATCC 607		>250 µg/mL
O=C(Nc1cccc(CN2CCOCC2)c1)c1ccc(Cl)cc1		MIC	103599		>16 µg/mL
CCOC(=O)c1c(-c2ccccc2)c2ccc(Cl)cc2oc1=O	resazurin	MIC90	mc2155		>100 µg/mL
CN1CCN(Cc2ccccc2NC(=O)c2ccc(Cl)cc2)CC1		MIC	103599		>16 µg/mL
CSCC[C@H](NS(=O)(=O)c1ccc(C)cc1)C(=O)N/N=C/c1ccc2c(c1)OC(F)(F)O2	broth dilution / visual reading	MIC	ATCC 607		>250 µg/mL
CCCCCCCCCCCCCCCCC#CC(=O)O		MIC	mc2155		35 µg/mL
O=C(O)c1c2n(c3cc(N4CCN(Cc5ccc6c(c5)OCO6)CC4)c(F)cc3c1=O)CS2	agar	MIC	ATCC 14468 MC2		53.25 µM
Cc1c(CN2CCN(C)CC2)cc(-c2ccc(Cl)cc2)n1-c1ccc(Cl)cc1		MIC	6 strains		3.1–25 µg/mL
CCCCCCCC/C=C\CCCCCCCC(=O)O		MIC	mc2155		>200 µg/mL
C[C@H]1COc2c(N3CCc4ccccc4C3C(=O)NC(C)(C)C)c(F)cc3c(=O)c(C(=O)O)cn1c23	agar	MIC99			50.66 µM
CCCCCCCCC(O)[C@@H]1O[C@H]([C@H](O)C(=O)OC)C(O)C1O	absorbance	MIC	mc2155		1.6 µM
CCc1nc(NCCCc2ccccc2)c2cc(C)sc2n1	resazurin	EC50	mc2155	cydA + cdyAB	0.83 µM
O=C(O)c1c2n(c3cc(N4CCN(C(=O)c5ccco5)CC4)c(F)cc3c1=O)CS2	agar	MIC	ATCC 14468 MC2		58.22 µM
O=C(/C=C/c1ccccc1)Nc1ccc(CN2CCOCC2)cc1		MIC	103599		>16 µg/mL
CO/N=C(/CN1CCN(c2c(F)cc3c(=O)c(C(=O)O)cn(C4CC4)c3c2OC)CC1C)c1cc2ccccc2oc1=O		MIC	CMCC 93202		>12.5 µg/mL

The first 6 rows once more:

CCCCCCCCC(O)[C@@H]1O[C@H](C(C)O)C(O)C1O ; method: absorbance ; measure: MIC ; strain or isolate: mc2155 ; value: 2 µM
Cc1cn(C/C=C\Cn2c(=O)n3c4c(cccc42)CCC3)c(=O)[nH]c1=O ; method: resazurin / absorbance ; measure: EC50 ; strain or isolate: mc2155 ; value: >160 µg/mL
COc1ccc2cc(C(=O)CN3CCN(c4c(F)cc5c(=O)c(C(=O)O)cn(C6CC6)c5c4OC)CC3C)c(=O)oc2c1 ; measure: MIC ; strain or isolate: CMCC 93202 ; value: >12.5 µg/mL
CC(C)(C)NC(=O)C1c2ccccc2CCN1c1cc2c(cc1[N+](=O)[O-])c(=O)c(C(=O)O)c1n2CS1 ; method: agar ; measure: MIC ; strain or isolate: ATCC 14468 MC2 ; value: 98.32 µM
O=C1CC(c2cccc(F)c2)Nc2ccccc21 ; measure: MIC ; strain or isolate: ATCC 607 ; value: 62.5 µg/mL
CCO/N=C(/CN1CCN(c2c(F)cc3c(=O)c(C(=O)O)cn(C4CC4)c3c2OC)CC1C)c1cc2ccc(OC)cc2oc1=O ; measure: MIC ; strain or isolate: CMCC 93202 ; value: 6.25 µg/mL

ECn: concentration that inhibits the pathogen or its effect by n%. Two numbers with a dash give a range or band. Blank or dashed fields: not listed here. A number after MIC or MFC names an inhibition level or a share of isolates.